Experimental data taken from publication PMC5900025, “Naphthoquinone Derivatives as Scaffold to Develop New Drugs for Tuberculosis Treatment” (Frontiers in Microbiology, 2018).

System: M. tuberculosis pan-susceptible H37Rv (ATCC 27294)
Format: cell-based
Conditions: IC50 J774A.1 / MIC

Structure (SMILES)	SI (IC50/MIC)
CO[C@H]1/C=C/O[C@@]2(C)Oc3c(C)c(O)c4c(O)c(c(/C=N/N5CCN(C)CC5)c(O)c4c3C2=O)NC(=O)/C(C)=C\C=C\[C@H](C)[C@H](O)[C@@H](C)[C@@H](O)[C@@H](C)[C@H](OC(C)=O)[C@@H]1C [RIF, rifampicin, reference compound]	≥4094
O=C1C=C(Nc2ccccc2)C(=O)c2ccccc21 [Compound 6, 2-(Phenylamino)naphthalene-1,4-dione]	≥8
NC1=CC(=O)c2ccccc2C1=O [Compound 5, 2-Aminonaphthalene-1,4-dione]	≥16
NNC(=O)c1ccncc1 [INH, isoniazid, reference compound]	8523
CC1(C)CCC2=C(O1)C(=O)c1ccccc1C2=O [Compound 2, 2,2-Dimethyl-3,4-dihydro-2H-benzo[g]chromene-5, 10-dione]	2.8
CC1(C)CC2=C(O1)C(=O)c1ccccc1C2=O [Compound 3, 2,2-Dimethyl-2,3-dihydronaphtho[2,3-b]furan-4,9-dione]	≥16
